Sequence variants of PSTVd loop 15 after infection

PSTVd intermediate strain, loop 15: wild type GGAAACCGCUACUAC, pool pattern GGAAACCGNNNNNNC; upper and lower strand joined, each 5' to 3', the first 7 letters being the upper strand, closing pairs included.

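A pool of all variants was put on leaves of three Nicotiana benthamiana plants. Progeny were sequenced from the inoculated region (day 5), the margin of the inoculated leaf (day 10) and systemic leaves (day 12).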

Values are reads per thousand in the sample; higher means more abundant, 0 means not found.
Each site shows the three plants.
"Pool" is the share in the plasmid pool used as inoculum, on the same scale.
The inoculated region was read from the minus strand, the other sites from the plus strand.
IR is the inoculated region, LM the leaf margin, Sys the systemic leaves.
Samples held 43,870 to 66,106 reads, so the smallest values rest on one or two reads.
The authors trace changes outside the varied positions to PCR and sequencing errors or to mutation in the plant; presence does not show that a variant is infectious alone.
For reference, wild type rose from 33.9 per thousand in the pool to 202, 200, 159 (inoculated region), 724, 746, 710 (leaf margin) and 856, 883, 880 (systemic leaves).

sequence,pool,IR,LM,Sys
GGAAACCGUAGCCGC,0.176,0.197 / 0.0803 / 0.0571,0 / 0 / 0,0 / 0 / 0
GGAAACCGUAGCCUC,0.256,0.131 / 0.0964 / 0.0571,0 / 0 / 0,0.0161 / 0 / 0
GGAAACCGUAGCGAC,0.320,0.0983 / 0.145 / 0.0381,0.0162 / 0.0445 / 0,0 / 0 / 0
GGAAACCGUAGCGCC,0.240,0.0655 / 0.112 / 0.0381,0 / 0 / 0,0 / 0 / 0
GGAAACCGUAGCGGC,0.128,0.0655 / 0.0803 / 0.114,0.0323 / 0 / 0.0200,0 / 0 / 0
GGAAACCGUAGCGUC,0.208,0.0819 / 0.0482 / 0.152,0 / 0 / 0,0.0161 / 0 / 0
GGAAACCGUAGCUAC,0.208,0.180 / 0.337 / 0.362,0.162 / 0.134 / 0.140,0 / 0.0303 / 0.0684
GGAAACCGUAGCUCC,0.304,0.0328 / 0.0803 / 0.0762,0.0162 / 0 / 0,0 / 0 / 0
GGAAACCGUAGCUGC,0.224,0.278 / 0.145 / 0.0952,0 / 0 / 0.0401,0.0161 / 0 / 0
GGAAACCGUAGCUUC,0.272,0.311 / 0.289 / 0.324,0.178 / 0.156 / 0.140,0.0161 / 0 / 0
GGAAACCGUAGGAAC,0.192,0.0491 / 0.145 / 0.0762,0 / 0.0223 / 0,0 / 0 / 0
GGAAACCGUAGGACC,0.0960,0.164 / 0.0482 / 0.0952,0 / 0 / 0,0 / 0 / 0.0456
GGAAACCGUAGGAGC,0.320,0.164 / 0.0643 / 0.152,0 / 0.0223 / 0.0401,0 / 0 / 0
GGAAACCGUAGGAUC,0.256,0.0655 / 0.0803 / 0.0762,0.0162 / 0 / 0.0401,0 / 0 / 0
GGAAACCGUAGGCAC,0.160,0.0491 / 0.0964 / 0.114,0.0162 / 0.0223 / 0,0 / 0 / 0
GGAAACCGUAGGCCC,0.256,0.213 / 0.225 / 0.133,0 / 0 / 0,0.0161 / 0 / 0
GGAAACCGUAGGCGC,0.208,0.115 / 0.0482 / 0.0571,0.0162 / 0 / 0.0200,0 / 0 / 0
GGAAACCGUAGGCUC,0.304,0.0983 / 0.145 / 0.0762,0 / 0 / 0.0200,0 / 0 / 0
GGAAACCGUAGGGAC,0.320,0.0655 / 0.161 / 0.114,0 / 0 / 0.0200,0 / 0 / 0.0228
GGAAACCGUAGGGCC,0.256,0.0491 / 0.0643 / 0.0952,0.0162 / 0 / 0.0200,0 / 0 / 0
GGAAACCGUAGGGGC,0.224,0.0655 / 0.0482 / 0.0762,0.0162 / 0.0223 / 0,0 / 0 / 0
GGAAACCGUAGGGUC,0.240,0.0328 / 0.0964 / 0.0571,0 / 0 / 0,0 / 0 / 0
GGAAACCGUAGGUAC,0.272,0.328 / 0.305 / 0.495,0.113 / 0.0445 / 0.100,0.0966 / 0.0605 / 0.0456
GGAAACCGUAGGUCC,0.224,0.0328 / 0.112 / 0.0190,0 / 0 / 0.0601,0 / 0 / 0
GGAAACCGUAGGUGC,0.240,0.311 / 0.289 / 0.362,0.146 / 0.0668 / 0.100,0.0483 / 0 / 0
GGAAACCGUAGGUUC,0.160,0.328 / 0.337 / 0.286,0.113 / 0.0668 / 0.180,0.0644 / 0.0756 / 0.0456
GGAAACCGUAGUAAC,0.144,0.409 / 0.209 / 0.228,0.162 / 0.0891 / 0.240,0.0161 / 0 / 0
GGAAACCGUAGUACC,0.256,0.0328 / 0.161 / 0.0952,0 / 0.0445 / 0,0 / 0 / 0
GGAAACCGUAGUAGC,0.176,0.147 / 0.129 / 0.0381,0 / 0 / 0.0401,0 / 0 / 0
GGAAACCGUAGUAUC,0.240,0.0491 / 0.112 / 0.228,0.0162 / 0 / 0.0200,0 / 0 / 0
GGAAACCGUAGUCAC,0.224,0.229 / 0.209 / 0.343,0.113 / 0.111 / 0.160,0.0322 / 0 / 0
GGAAACCGUAGUCCC,0.176,0.115 / 0.112 / 0.0571,0 / 0 / 0.0200,0 / 0 / 0
GGAAACCGUAGUCGC,0.320,0.0819 / 0.0643 / 0.0571,0.0162 / 0 / 0,0 / 0 / 0
GGAAACCGUAGUCUC,0.272,0.0655 / 0.177 / 0.171,0.0323 / 1.76 / 0,0 / 0 / 0
GGAAACCGUAGUGAC,0.176,0.115 / 0.0321 / 0.0952,0 / 0 / 0.0401,0 / 0 / 0
GGAAACCGUAGUGCC,0.256,0.0983 / 0.129 / 0.133,0 / 0 / 0.0200,0 / 0 / 0
GGAAACCGUAGUGGC,0.336,0.0655 / 0.145 / 0.0571,0.0162 / 0 / 0,0 / 0 / 0.0228
GGAAACCGUAGUGUC,0.128,0.0491 / 0.0321 / 0.0571,0.0162 / 0 / 0.0200,0 / 0 / 0
GGAAACCGUAGUUAC,0.192,0.311 / 0.289 / 0.362,0.129 / 0.0891 / 0.160,0.0161 / 0.0454 / 0.114
GGAAACCGUAGUUCC,0.144,0.0983 / 0.0964 / 0.0381,0 / 0 / 0,0 / 0 / 0
GGAAACCGUAGUUGC,0.224,0.0819 / 0.129 / 0.0762,0 / 0.0223 / 0.0200,0 / 0 / 0
GGAAACCGUAGUUUC,0.208,0.197 / 0.177 / 0.305,0.0485 / 0.134 / 0.240,0.0483 / 0 / 0
GGAAACCGUAUAAAC,0.160,0.0983 / 0.129 / 0.133,0 / 0 / 0,0 / 0 / 0

5 of these entries, quoted again:

| sequence | pool | IR | LM | Sys |
|---|---|---|---|---|
| GGAAACCGUAGUCCC | 0.176 | 0.115 / 0.112 / 0.0571 | 0 / 0 / 0.0200 | 0 / 0 / 0 |
| GGAAACCGUAGCUCC | 0.304 | 0.0328 / 0.0803 / 0.0762 | 0.0162 / 0 / 0 | 0 / 0 / 0 |
| GGAAACCGUAGGUUC | 0.160 | 0.328 / 0.337 / 0.286 | 0.113 / 0.0668 / 0.180 | 0.0644 / 0.0756 / 0.0456 |
| GGAAACCGUAGUUCC | 0.144 | 0.0983 / 0.0964 / 0.0381 | 0 / 0 / 0 | 0 / 0 / 0 |
| GGAAACCGUAGGACC | 0.0960 | 0.164 / 0.0482 / 0.0952 | 0 / 0 / 0 | 0 / 0 / 0.0456 |

Data from the supplement of Wu et al. 2024, doi:10.1371/journal.ppat.1012142.